Results from article PMC8846325, “A Photoactivable Natural Product with Broad Antiviral Activity against Enveloped Viruses, Including Highly Pathogenic Coronaviruses” (Antimicrobial Agents and Chemotherapy, 2022).

Legend:
HCoV-229E [1] = assay: Cryo-EM of virions after osmotic shock; settings: 10 μM, 400 mM NaCl
HCoV-229E [2] = assay: HCoV-229E-Luc infection inhibition luciferase assay; format: cell-based; settings: selective index against HCoV-229E

C=Cc1c(C)c2cc3nc(c4c5[nH]c(cc6nc(cc1[nH]2)C(C)=C6CC)c(C)c5C(=O)[C@@H]4C(=O)OC)[C@@H](CCC(=O)O)[C@@H]3C [Pba, pheophorbide a]
virion shape after osmotic shock, light (HCoV-229E [1]; 30 min light exposure): no membrane deformation was observed
virion shape after osmotic shock, dark (HCoV-229E [1]; dark): a similar alteration of viral shape was observed
SI (HCoV-229E [2]): 11.2

C=Cc1c(C)c2cc3nc(c4c5[nH]c(cc6nc(cc1[nH]2)C(C)=C6CC)c(C)c5C(=O)C4)[C@@H](CCC(=O)O)[C@@H]3C [PyroPba, pyropheophorbide a]
SI (HCoV-229E [2]): 7.6

HPPH
SI (HCoV-229E [2]): 7.1

C=Cc1c(C)c2cc3nc(c(CC(=O)O)c4[nH]c(cc5nc(cc1[nH]2)C(C)=C5CC)c(C)c4C(=O)O)[C@@H](CCC(=O)O)[C@@H]3C [Chlorin e6, chlorin e6]
SI (HCoV-229E [2]): 29.7

C=CC1=C(C)c2cc3[n-]c(cc4[n-]c(cc5nc(cc1n2)C(C)=C5C=C)c(C)c4CCC(=O)O)c(CCC(=O)O)c3C.[Zn+2] [Zn protoporphyrin IX, Zn-protoporphyrin IX]
SI (HCoV-229E [2]): 21.0

N-methyl protoporphyrin IX
SI (HCoV-229E [2]): >66.1

CCC1=C(C)c2cc3[nH]c(cc4nc(cc5c(CCC(=O)O)c(C)c(cc1n2)n5C)C(CCC(=O)O)=C4C)c(C)c3CC [N-Methyl mesoporphyrin IX, N-methyl mesoporphyrin IX]
SI (HCoV-229E [2]): >64

For part of these data: The source's definition of the ratio is not given here.
